One may read the pIC50 as −log10 of the IC50, conventionally taken in molar units.

Experimental findings from patent US5693815A, “Peptides” (Schering Corporation, priority 1995, dated 1997) are described below.

pIC50: −log10 of the molar value. Bounds are passed on as bounds.

For the test, the target named is HIV1 protease (Human immunodeficiency virus type 1 group M subtype B, UniProt P04585). Nature of the test: Inhibition of proteolytic activity of HIV-1 protease by scintillation proximity assay (SPA), Test 3. To be noted: read-out: SPA IC50, room temperature, 40 minutes. Format: biochemical. An excerpt: TEST 3--INHIBITION OF PROTEOLYTIC ACTIVITY OF HIV-1-PROTEASE AS DETERMINED BY SCINTILLATION […] ASSAY (SPA)
This is an alternative assay to test #1 and is used to determine the ability of compounds to inhibit the HIV1 protease activity. The SPA assay for HIV1 protease has been developed by Amersham Corporation, Arlington Heights, Ill., and is available for commercial use. In this system the substrate for HIV1 protease, AcN-(I^125)Tyr-Arg-Ala-Arg-Val-Phe-Phe-Val-Arg-Ala-Ala-Lys-SPA bead, is cleaved by the HIV1 protease at the Phe-Phe bond releasing the I^125 -labelled peptide fragment from the SPA bead. This event causes removal of detectable signal from the microsphere bead indicated by reduction in radioactivity
(measured in CPM), which is proportional to the proteolytic activity. The substrate, and the HIV1 protease were incubated in presence of synthetic compound in various dilutions at room temperature for 40 minutes, and the concentration of the compound required to inhibit the proteolytic activity by 50% (IC50) was determined.
On the technique in general: SPA uses beads or plates that emit light when radiolabelled molecules are held near them.

`CC(C)(C)NC(=O)c1ccccc1OCC(NC=O)C(Cc1ccccc1)NC(=O)C(CC(N)=O)NC(=O)c1ccc2ccccc2n1` (stereo not shown): the pIC50 is 6.55.

With `CC(C)(C)NC(=O)c1ccccc1OC[C@H](N)[C@H](Cc1ccccc1)NC(=O)[C@H](CC(N)=O)NC(=O)c1ccc2ccccc2n1`, the pIC50 was 5.87.

Regarding `CC(C)(C)NC(=O)c1ccccc1OC[C@@H](N)[C@H](Cc1ccccc1)NC(=O)[C@H](CC(N)=O)NC(=O)OC(C)(C)C`, the pIC50 was < 5.70.

Take `CC(C)(C)NC(=O)c1ccccc1OC[C@@H](N=[N+]=[N-])[C@H](Cc1ccccc1)NC(=O)[C@H](CC(N)=O)NC(=O)OC(C)(C)C`: the pIC50 was < 5.70.

As to `CC(C)(C)NC(=O)c1ccccc1OC[C@@H](N=[N+]=[N-])[C@H](Cc1ccccc1)NC(=O)[C@H](CC(N)=O)NC(=O)c1ccc2ccccc2n1`, the negative logarithm of the IC50 (pIC50) was 5.76.

As to `CCC(C)[C@H](NC(=O)c1ccc2ccccc2n1)C(=O)N[C@@H](Cc1ccccc1)[C@H](COc1ccc2ccccc2c1C(=O)NC(C)(C)C)N=[N+]=[N-]` (stereo partly shown), the pIC50 is < 5.70.

`CC(C)(C)NC(=O)c1ccccc1OC[C@@H](N=[N+]=[N-])[C@H](Cc1ccccc1)NC(=O)[C@H](CC(N)=O)NC(=O)c1ccc(-c2ccccc2)cc1`: the pIC50 was < 5.70.

Take `CC(C)(C)NC(=O)c1ccccc1OC[C@@H](N)[C@H](Cc1ccccc1)NC(=O)[C@H](CC(N)=O)NC(=O)c1cnc2ccccc2n1`: the pIC50 is 6.00.

As to `CC(C)(C)NC(=O)c1ccccc1OC[C@@H](N=[N+]=[N-])[C@H](Cc1ccccc1)NC(=O)[C@H](CC(N)=O)NC(=O)c1ccccn1`, the pIC50 is < 5.70.

As to `CC(C)(C)NC(=O)c1ccccc1OCC(O)(CO)[C@H](Cc1ccccc1)NC(=O)[C@H](CC(N)=O)NC(=O)c1ccc2ccccc2n1` (single isomer, unassigned) [W or X (isomer A)], the pIC50 is 7.15.

With `CC(=O)NC(COc1ccccc1C(=O)NC(C)(C)C)C(Cc1ccccc1)NC(=O)C(CC(N)=O)NC(=O)c1ccc2ccccc2n1` (stereo not shown), the negative logarithm of the IC50 (pIC50) was < 5.70.

Regarding `CC(C)(C)NC(=O)c1ccccc1OC[C@@H](N=[N+]=[N-])[C@H](Cc1ccccc1)NC(=O)[C@H](CC(N)=O)NC(=O)c1ccc2c(c1)C(=O)c1ccccc1C2=O`, the pIC50 was < 5.70.

With `CC(C)(C)NC(=O)c1ccccc1OCC(O)(CO)[C@H](Cc1ccccc1)NC(=O)[C@H](CC(N)=O)NC(=O)c1ccc2ccccc2n1` (single isomer, unassigned) [W or X (isomer B)], the negative logarithm of the IC50 (pIC50) was 7.28.

On to `CC(C)(C)NC(=O)c1c(OC[C@H](N=[N+]=[N-])[C@H](Cc2ccccc2)NC(=O)[C@H](CC(N)=O)NC(=O)c2ccc3ccccc3n2)ccc2ccccc12`, for which the pIC50 was 5.90.

`CC(C)(C)NC(=O)c1ccccc1OC[C@@H](N)[C@H](Cc1ccccc1)NC(=O)[C@H](CC(N)=O)NC(=O)c1ccc2c(c1)C(=O)c1ccccc1C2=O`: the pIC50 was 6.15.

As to `CC(C)(C)NC(=O)c1c(OC[C@H](N)[C@H](Cc2ccccc2)NC(=O)[C@H](CC(N)=O)NC(=O)c2ccc3ccccc3n2)ccc2ccccc12`, the pIC50 is 5.74.

As for `CC(C)(C)NC(=O)c1ccccc1OCC(=O)[C@H](Cc1ccccc1)NC(=O)[C@H](CC(N)=O)NC(=O)c1ccc2ccccc2n1`, the pIC50 was 6.44.

Take `CC(C)(C)NC(=O)c1ccccc1OC[C@@H](N=[N+]=[N-])[C@H](Cc1ccccc1)NC(=O)[C@H](CC(N)=O)NS(=O)(=O)c1ccc2ccccc2c1`: the pIC50 is < 5.70.

With `CC(C)(C)NC(=O)c1ccccc1OC[C@@H](N=[N+]=[N-])[C@H](Cc1ccccc1)NC(=O)[C@H](CC(N)=O)NC(=O)c1cnnc2ccccc12`, the pIC50 was < 5.70.
